Results reported in patent US20230357139A1, “SMALL MOLECULE INHIBITORS OF BACTERIAL TOXINS” (Artizan Biosciences, Inc., priority 2020, published 2023).
The match of structure and compound is tentative.

The chains behind the UniProt entries cited, without tags or fusion partners. Residues count along the entry.
UniProt Q833V7, 193-510 limits assumed: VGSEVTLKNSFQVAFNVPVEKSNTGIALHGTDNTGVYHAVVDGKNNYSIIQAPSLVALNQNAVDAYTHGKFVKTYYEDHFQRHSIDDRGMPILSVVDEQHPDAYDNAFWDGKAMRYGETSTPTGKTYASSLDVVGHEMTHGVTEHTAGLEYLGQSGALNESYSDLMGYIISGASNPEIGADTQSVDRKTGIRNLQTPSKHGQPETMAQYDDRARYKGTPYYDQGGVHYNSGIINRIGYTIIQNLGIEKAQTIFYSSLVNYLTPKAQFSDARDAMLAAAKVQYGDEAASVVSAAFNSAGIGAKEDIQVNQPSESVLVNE

Legend:
recombinant BFT (rBFT) = assay: NFF-3 cleavage assay; settings: read-out: NFF3 IC50; rBFT pre-incubated with compound 30 minutes at 37° C., then NFF-3 for 24 hours
Description: A NFF-3 cleavage assay was used to test activity of recombinant BFT, before or after addition of various inhibitors. The NFF-3 cleavage assay was previously described by Goulas et al., PNAS, 2011, 108(5) 1856-1861, which is incorporated by reference herein in its entirety.
Initially, recombinant BFT (rBFT) (0.25, 0.5, 1, 2, 4, 8, or 16 μg/mL) was incubated at 37° C. with the fluorogenic substrate NFF-3 (Cayman Chemical) at a concentration of 2.5 μM, 5 μM, or 10 μM. After 18 hours, fluorescence was measured in a microplate fluorimeter.
Next, rBFT was pre-incubated with one or more test compounds at different concentrations for 30 minutes at 37° C. The rBFT-compound mixture was then added to NFF-3 and incubated for 24 hours at 37° C. Fluorescence was then measured in a microplate fluorimeter.

Gelatinase E (GelE) = Gelatinase E (GelE) (Enterococcus faecalis (strain ATCC 700802 / V583), UniProt Q833V7); assay: Gelatinase E activity assay (FRET peptide substrate); settings: read-out: GelE IC50; purified GelE, room temperature, 30 minutes
Description: Gelatinase E (Gel E) was purified from bacterial culture supernatant from E. faecalis. E. faecalis was cultured aerobically in Todd Hewitt Broth overnight at 37° C. Nucleic acid was precipitated with 0.9% protamine solution, followed by protein precipitation with ammonium sulfate. Resuspended protein pellet was further subjected to purification using FPLC (phenyl Sepharose column). Fractions with gelatinase activity as determined by casein agar assay were pooled and further concentrated.
Different concentrations of test compound were incubated with purified GelE and FRET-based peptide substrate (390 MMP FRET Substrate 1; Anaspec AS-27077) in assay buffer at room temperature for 30 minutes. The fluorescence signal was determined by a plate reader.

CC[C@H](C(=O)NO)N(Cc1cccnc1)C(=O)c1ccc(OC)cc1
IC50 (recombinant BFT (rBFT)): 96.3 µM | IC50 (Gelatinase E (GelE)): 16.4 µM
